A mixed list of measured activities; the numbers were collected in NIAID ChemDB.

All rows: tests in culture; agent: HIV-1

ECn is the concentration giving n% inhibition of infection, replication or growth.

| structure | method | conditions | measure | cell line | mutations | strain or isolate | result |
|---|---|---|---|---|---|---|---|
| CCCCCOC(=O)C[C@H](NP(=O)(CO[C@@H](CF)Cn1ccc2c(=O)[nH]c(N)nc21)N[C@@H](CC(=O)OCCCCC)C(=O)OCCCCC)C(=O)OCCCCC | luminescence | - | EC50 | TZM-bl | - | NL4-3 | >4 µM |
| C#Cc1ccc(Nc2nccc(Oc3c(C)cc(-c4cn(Cc5ccc([N+](=O)[O-])cc5)nn4)cc3C)n2)cc1 | MTT | - | EC50 | MT-4 | - | IIIB | 0.045 µM |
| CCCCCOC(=O)C[C@H](NP(=O)(CO[C@H](CF)Cn1cnc2c(N)ncnc21)Oc1ccccc1)C(=O)OCCCCC | luminescence | - | EC50 | TZM-bl | - | BaL | 0.0042 µM |
| Nc1ccn([C@@H]2C=C(F)[C@H](CO)O2)c(=O)n1 | RT activity | - | EC50 | PBMC | - | LAI Laboratory isolate | 0.03 µM |
| Cc1cn([C@H]2C[C@H](N=[N+]=[N-])[C@@H](CO)O2)c(=O)[nH]c1=O | cytopathic effect / syncytia / microscopy | - | EC50 | C8166 | - | IIIB | 0.01 µM |
| C#Cc1ccc(Nc2nccc(Oc3c(C)cc(-c4cn(-c5ccc(C(=O)O)cc5)nn4)cc3C)n2)cc1 | MTT | - | EC50 | MT-4 | K103N | IIIB | 0.23 µM |
| O=c1[nH]cnc2c1ncn2[C@H]1CC[C@@H](CO)O1 | RT activity | - | EC50 | H9 | - | IIIB | 1.6 µg/mL |
| Nc1nc(=O)n([C@@H]2CS[C@H](CO)O2)cc1F | RT activity | - | EC50 | PBMC | - | IIIB | 0.01 µM |
| Nc1nc2c(ncn2[C@H]2C=C[C@@H](CO)C2)c(=O)o1 | RT activity | - | EC50 | CEM | - | IIIB | 42 µg/mL |
| C#Cc1ccc(Nc2nccc(Oc3c(C)cc(-c4cn(Cc5ccc(C#N)cc5)nn4)cc3C)n2)cc1 | MTT | - | EC50 | MT-4 | E138K | IIIB | 0.56 µM |
| Cc1ccnc2c1NC(=O)c1cccnc1N2C1CC1 | cytopathic effect / XTT | - | EC50 | CEM + CEM-SS | RT-M184V | NL4-3 (RT M184V) | 0.1 µM |
| C#Cc1ccc(Nc2nccc(Oc3c(C)cc(-c4cn(Cc5ccc(O)cc5)nn4)cc3C)n2)cc1 | MTT | - | EC50 | MT-4 | - | IIIB | 0.014 µM |
| Cc1cn([C@H]2C[C@H](N=[N+]=[N-])[C@@H](CO)O2)c(=O)[nH]c1=O | RT activity | - | EC50 | PBMC | - | M48 ddI-resistant | 0.73 µM |
| Nc1nc2c(ncn2[C@@H]2C[C@H](CO)[C@@H](O)[C@H]2O)c(=O)o1 | RT activity | chronic infection | EC50 | U-937/HIV-1(IIIB) + U-937 | - | IIIB | >100 µg/mL |
| CCc1cc(NCc2nc3c(Cl)ccc(Cl)c3o2)c(=O)[nH]c1C | p24 | - | EC90 | MT-4 | RT-P236L | DLV-resistant MF (RT-P236L) | 0.43 µM |
| CC(C)=CCN1Cc2cccc3[nH]c(=S)n(c23)C[C@@H]1C | cytopathic effect | - | EC50 | MT-2 | - | IIIB | 0.16 µM |
| Cc1occc1C(=S)Nc1ccc(Cl)c(/C=N/OC(C)(C)C)c1 | cytopathic effect / XTT | - | EC50 | CEM + CEM-SS | RT-V108I | Thiazolobenzimidazole-resistant (RT V108I) | 1.2 µM |
| CCCc1c([Se]c2ccccc2)n(COCc2ccccc2)c(=O)[nH]c1=O | p24 | - | EC90 | MT-2 | - | Cat #3 strain | 0.143 µM |
| C#Cc1ccc(Nc2nccc(Oc3c(C)cc(-c4cn(CCCC(=O)OC)nn4)cc3C)n2)cc1 | MTT | - | EC50 | MT-4 | - | RES056 | >20.15 µM |
| Cc1cn([C@H]2C=C[C@@H](CO)O2)c(=O)[nH]c1=O | cytopathic effect | - | EC50 | MT-2 | - | IIIB | 2.2 µM |
| Nc1ccccc1NC(=O)CSc1sc(Cl)nc1-c1ccc(Br)cc1Br | MTT | - | EC50 | MT-4 | K103K | IIIB | >13.08 µM |
| O=c1ccc2cc(O)c(O)cc2o1 | p24 / ELISA | - | EC50 | H9 | - | IIIB | 2.51 µg/mL |
| C/C=C/CSc1cc(NC(=S)c2ccsc2C)ccc1Cl | cytopathic effect / XTT | - | EC50 | CEM + CEM-SS | RT-L100I | Oxathiin carboxanilide-resistant RT L100I | >2 µM |
| C#Cc1ccc(Nc2nccc(Oc3c(C)cc(-c4cn(CCc5ccccc5)nn4)cc3C)n2)cc1 | MTT | - | EC50 | MT-4 | Y188L | IIIB | >5.66 µM |
| Cc1cn([C@H]2C[C@H](N=[N+]=[N-])[C@@H](CO)O2)c(=O)[nH]c1=O | cytopathic effect / XTT | - | EC50 | CEM + CEM-SS | - | RF | 0.002 µM |
| C=C1[C@H](CO)[C@@H](O)C[C@@H]1n1cnc2c(=O)[nH]c(N)nc21 | MTT | - | EC50 | MT-4 | Y188L | IIIB | 0.017 µM |
| Cc1c(Sc2ccccc2)n(COCCO)c(=O)[nH]c1=O | cytopathic effect | - | EC50 | MT-2 | - | IIIB | 5.6 µM |
| O=c1[nH]cnc2c1ncn2[C@H]1CC[C@@H](CO)O1 | MTT | - | EC50 | MT-4 | - | IIIB | 8.86 µM |
| Cc1cn([C@H]2C[C@H](N=[N+]=[N-])[C@@H](CO)O2)c(=O)[nH]c1=O | MTT | - | EC50 | MT-4 | - | IIIB | 0.012 µM |
| Nc1nc(-c2ccc(Br)cc2Br)c(SCC(=O)Nc2ccccc2N)s1 | MTT | - | EC50 | MT-4 | - | IIIB | >33.04 µM |
| N#C/C=C1/c2cc(S)cc([N+](=O)[O-])c2-c2c1cc(S(=O)(=O)NCc1ccccc1)cc2[N+](=O)[O-] | p24 / ELISA | - | EC50 | MT-4 | - | IIIB | 54.46 µM |
| Nc1ncnc2c1ncn2CCOCP(=O)(O)O | cytopathic effect | - | EC50 | MT-2 | RT-L100I | R82150 (RT-L100I) | 2.25 µM |
| Cc1ccnc2c1NC(=O)c1cccnc1N2C1CC1 | - | - | EC50 | HT4 + HT4-6C | - | BI-RG587-resistant | 3.6 µM |
| Nc1nc2c(ncn2[C@@H]2C[C@H](COP(=O)(O)O)[C@@H](O)[C@H]2O)c(=O)o1 | RT activity | chronic infection | EC50 | U-937/HIV-1(IIIB) + U-937 | - | IIIB | >100 µg/mL |
| O=C(CSc1sc(Cl)nc1-c1ccc(Br)cc1Br)Nc1ccccc1Br | MTT | - | EC50 | MT-4 | - | IIIB | >8.25 µM |
| CC(C)[C@H](NC(=O)N(C)Cc1ccccn1)C(=O)N[C@@H](Cc1ccccc1)[C@@H](O)[C@H](O)[C@H](Cc1ccccc1)NC(=O)[C@@H](NC(=O)N(C)Cc1ccccn1)C(C)C | cytopathic effect / trypan blue | - | EC90 | ATH8 | - | IIIB | 8.5 µM |
| Cc1ccccc1NC(=O)CSc1sc(Cl)nc1-c1ccc(Br)cc1Br | MTT | - | EC50 | MT-4 | - | IIIB | >26.94 µM |
| Cc1cn([C@H]2C[C@H](N=[N+]=[N-])[C@@H](CO)O2)c(=O)[nH]c1=O | plaque count | - | EC50 | HT4 + HT4-6C | - | BRU | 0.03 µM |
| CC(C)=CCN1Cc2cccc3[nH]c(=S)n(c23)C[C@@H]1C | cytopathic effect / XTT | - | EC50 | CEM + CEM-SS | - | IIIB | 0.07 µM |
| Nc1nc2c(ncn2[C@@H]2O[C@H](CO)[C@@H](O)[C@H]2O)c(=O)o1 | RT activity | - | EC50 | CEM | - | IIIB | 7 µg/mL |

A second listing of 3 rows from above:

structure	method	conditions	measure	cell line	mutations	strain or isolate	result
C#Cc1ccc(Nc2nccc(Oc3c(C)cc(-c4cn(CCCC(=O)OC)nn4)cc3C)n2)cc1	MTT	-	EC50	MT-4	-	RES056	>20.15 µM
Nc1ccn([C@@H]2C=C(F)[C@H](CO)O2)c(=O)n1	RT activity	-	EC50	PBMC	-	LAI Laboratory isolate	0.03 µM
CCCCCOC(=O)C[C@H](NP(=O)(CO[C@H](CF)Cn1cnc2c(N)ncnc21)Oc1ccccc1)C(=O)OCCCCC	luminescence	-	EC50	TZM-bl	-	BaL	0.0042 µM

Lines come from different laboratories, so protocols vary. An empty or dashed field is not shown.